Data source: PubChem BioAssay AID624099 (ICCB-Longwood, 2012)
The deposit covers about 21,000 reagents; below is a part drawn at random. Of all reagents, 497 (2.4%) are marked active. 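Higher z means weaker E2 silencing; only reporter increases were scored, and knock-downs that hurt cell survival may mask genuine repressor factors.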 A number with no mark means an inactive call.

- Purpose: 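Host factors E2 relies on to silence an HPV18 LCR reporter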 (primary screen)
- System: human C33A cervical carcinoma cells (HPV-negative) stably expressing BPV1 E2 and an HPV18 LCR luciferase reporter
- Reagents: siRNA pool against human genes, 40 nM
- Duration: 72 h
- Read-out: 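Per-well luciferase luminescence, z-scored on each plate against the plate mean and SD with control wells left out, then averaged across three replicate plates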
- Reading the numbers: mean z-score and z-score: higher = stronger reporter signal, weaker E2 silencing
- Call rule: 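Mean z ≥ 2 together with z ≥ 2 in two or more of the three replicates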

Gene | mean z-score | z-score, replicate A | z-score, replicate B | z-score, replicate C
RCOR2 | -4.26 | -3.36 | -4.3 | -5.13
ATP1A1 | 1.04 | 0.96 | 1.1 | 1.06
ACSM1 | 0.45 | 0.28 | 0.48 | 0.6
CHD7 | -0.5 | -0.19 | -0.69 | -0.64
PDE3B | 0.41 | 0.85 | 0.08 | 0.31
CLEC17A | -0.23 | -0.21 | -0.37 | -0.13
LBH | -0.03 | -0.23 | 0 | 0.14
RPS21 | -2.93 | -3.01 | -3.06 | -2.72
MORC1 | 2.47 (active) | 2.21 | 2.44 | 2.76
FKBP4P2 | 0.49 | 0.16 | 0.79 | 0.52
ZNF560 | -0.03 | -0.32 | 0.49 | -0.25
TMEM150B | -0.22 | 0.14 | -0.15 | -0.66
PCSK1N | -0.28 | 0.11 | -0.32 | -0.62
STARD13 | 0.85 | 1.05 | 1.51 | –
RBM34 | -0.59 | -0.49 | -0.68 | -0.59
SYT14 | -0.27 | -0.39 | -0.22 | -0.2
PRKY | 2.16 (active) | 2.42 | 1.78 | 2.27
LINC01299 | 0.32 | 0.26 | 0.33 | 0.36
NAPEPLD | 1.15 | 1.49 | 0.94 | 1.02
TNFRSF19 | 0.66 | 0.95 | 0.66 | 0.37
KAT5 | 1.64 | 2.01 | 1.42 | 1.49
CLIC4 | 0.33 | 0.32 | 0.26 | 0.4
AGPS-DT | -0.12 | -0.44 | 0.04 | 0.03
SYK | -0.05 | -0.18 | 0.17 | -0.14
C20orf141 | -0.63 | -0.59 | -0.71 | -0.6
INPPL1 | 1.47 | 1.26 | 1.46 | 1.7
RNPEP | 0.41 | 0.32 | 0.52 | 0.39
OTP | -1.52 | -1.79 | -1.48 | -1.28
CFAP298 | 0.8 | 0.49 | 0.9 | 1.01
STX10 | -0.23 | -0.12 | -0.33 | -0.24
ICOSLG | -0.85 | -1.01 | -0.81 | -0.74
OVOS2P | -1.48 | -1.32 | -1.94 | -1.2
LAD1 | 0.77 | 1.04 | 0.48 | 0.77
SNTB1 | 0.68 | 0.66 | 0.71 | 0.67
ARL11 | -0.62 | -0.59 | -0.58 | -0.68
HSPA12A | -0.13 | -0.3 | -0.22 | 0.14
CHRNA4 | -0.36 | -0.37 | -0.6 | -0.11
ZNF707 | 0.62 | 0.71 | 0.7 | 0.44
LOC144762 (retired record) | 0.25 | 0.3 | 0.21 | 0.24
SLC67A1 | -0.74 | -0.92 | -0.66 | -0.62
SLC17A3 | -0.1 | -0.21 | 0 | -0.1
CYCS | -1.42 | -1.57 | -1.22 | -1.47
BAG1 | 0.62 | 0.8 | 0.51 | 0.54
COL5A3 | 0 | 0.46 | -0.32 | -0.14
PPP3CA | -1.03 | -0.92 | -1.11 | -1.06
TCL6 | 0.03 | -0.39 | 0.17 | 0.32
PNOC | -0.36 | -0.46 | -0.39 | -0.22
LSM1 | 1.16 | 0.69 | 1.64 | 1.16
PNMT | 1.3 | 1.08 | 1.37 | 1.44
EIF4B | 0.72 | 0.7 | 0.46 | 1
H3C1 | -1.32 | -1.33 | -1.31 | -1.32
BNIP1 | -0.17 | -0.24 | -0.4 | 0.13
SNRPB2 | 0 | 0.24 | -0.04 | -0.21
PRSS41 | 0.52 | 0.41 | 0.72 | 0.43
PTGFR | -1.5 | -1.59 | -1.64 | -1.29
EIF1B | 0.3 | 0.24 | 0.24 | 0.42
FAM185A | -1.86 | -2.3 | -1.83 | -1.45

Ordered by “mean z-score” (high to low): some entries from above
Gene | mean z-score | z-score, replicate A | z-score, replicate B | z-score, replicate C
KAT5 | 1.64 | 2.01 | 1.42 | 1.49
INPPL1 | 1.47 | 1.26 | 1.46 | 1.7
NAPEPLD | 1.15 | 1.49 | 0.94 | 1.02
TNFRSF19 | 0.66 | 0.95 | 0.66 | 0.37
RNPEP | 0.41 | 0.32 | 0.52 | 0.39
CLIC4 | 0.33 | 0.32 | 0.26 | 0.4
SYK | -0.05 | -0.18 | 0.17 | -0.14
AGPS-DT | -0.12 | -0.44 | 0.04 | 0.03
C20orf141 | -0.63 | -0.59 | -0.71 | -0.6
